PubChem BioAssay AID1259414 | Drosophila RNAi Screening Center, 2018
The deposit covers about 24,000 reagents; shown is an unselected part of those that have a named target and a result. Of all reagents, about 1,210 (5%) got an active call. 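Inactive calls also include excluded dsRNAs with several or no targets, genes unexpressed in JW18, and well A1, regardless of score.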 A plus sign joins genes that one reagent is predicted to hit.

Purpose: 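Genome-wide screen for host control of endosymbiont load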 (primary screen)
System: Drosophila JW18 cells infected with Wolbachia
Knock-down reagent: long dsRNA against Drosophila genes, 0.25 µg dsRNA per well of a 384-well plate
Time to read-out: 5 days
Treatment: cells persistently infected with Wolbachia before knock-down; no added drug
Read-out: 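Imaged fluorescence in situ signal for Wolbachia 23S rRNA per DAPI-counted host cell, given as a robust z-score within each plate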
Scale: Wolbachia per cell robust z: higher = more Wolbachia per host cell than the plate typical
Hit rule: 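Hit when robust z is 1.5 or more, or -1.5 or less, in at least two of three replicates; excludes dsRNAs with several or no targets, genes not expressed in JW18 and well A1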

{"predicted target": "yellow-d2", "dsRNA": "DRSC04591", "Wolbachia per cell robust z, rep 1": 0.681, "Wolbachia per cell robust z, rep 2": 0.366, "Wolbachia per cell robust z, rep 3": -3.64, "Outcome": "inactive"}
{"predicted target": "RNaseMRP:RNA", "dsRNA": "DRSC36557", "Wolbachia per cell robust z, rep 1": 0.357, "Wolbachia per cell robust z, rep 2": -0.0623, "Wolbachia per cell robust z, rep 3": -0.412, "Outcome": "inactive"}
{"predicted target": "Taf12L", "dsRNA": "DRSC00467", "Wolbachia per cell robust z, rep 1": 0.264, "Wolbachia per cell robust z, rep 2": 0.493, "Wolbachia per cell robust z, rep 3": 2.42, "Outcome": "inactive"}
{"predicted target": "cGlr2", "dsRNA": "DRSC04017", "Wolbachia per cell robust z, rep 1": -1.78, "Wolbachia per cell robust z, rep 2": -0.81, "Wolbachia per cell robust z, rep 3": -2.23, "Outcome": "active"}
{"predicted target": "CG7179", "dsRNA": "DRSC25007", "Wolbachia per cell robust z, rep 1": 0.903, "Wolbachia per cell robust z, rep 2": -0.525, "Wolbachia per cell robust z, rep 3": -0.639, "Outcome": "inactive"}
{"predicted target": "amn + Hers", "dsRNA": "DRSC20306", "Wolbachia per cell robust z, rep 1": -1.11, "Wolbachia per cell robust z, rep 2": -0.333, "Wolbachia per cell robust z, rep 3": -0.531, "Outcome": "inactive"}
{"predicted target": "CG10919", "dsRNA": "DRSC14283", "Wolbachia per cell robust z, rep 1": -0.401, "Wolbachia per cell robust z, rep 2": -1.46, "Wolbachia per cell robust z, rep 3": 0.997, "Outcome": "inactive"}
{"predicted target": "CG2701", "dsRNA": "DRSC18590", "Wolbachia per cell robust z, rep 1": 0.196, "Wolbachia per cell robust z, rep 2": 0.491, "Wolbachia per cell robust z, rep 3": -0.553, "Outcome": "inactive"}
{"predicted target": "Snx16", "dsRNA": "DRSC06984", "Wolbachia per cell robust z, rep 1": -2.21, "Wolbachia per cell robust z, rep 2": -0.294, "Wolbachia per cell robust z, rep 3": 0.00145, "Outcome": "inactive"}
{"predicted target": "Spn100A", "dsRNA": "DRSC14596", "Wolbachia per cell robust z, rep 1": -0.486, "Wolbachia per cell robust z, rep 2": -0.00785, "Wolbachia per cell robust z, rep 3": -0.217, "Outcome": "inactive"}
{"predicted target": "CG12963", "dsRNA": "DRSC06265", "Wolbachia per cell robust z, rep 1": 0.679, "Wolbachia per cell robust z, rep 2": 0.976, "Wolbachia per cell robust z, rep 3": -0.341, "Outcome": "inactive"}
{"predicted target": "Socs44A", "dsRNA": "DRSC06828", "Wolbachia per cell robust z, rep 1": -1.67, "Wolbachia per cell robust z, rep 2": -0.117, "Wolbachia per cell robust z, rep 3": -1.33, "Outcome": "inactive"}
{"predicted target": "CG9826", "dsRNA": "DRSC04570", "Wolbachia per cell robust z, rep 1": 0.401, "Wolbachia per cell robust z, rep 2": 1.09, "Wolbachia per cell robust z, rep 3": 1.2, "Outcome": "inactive"}
{"predicted target": "Art2", "dsRNA": "DRSC00627", "Wolbachia per cell robust z, rep 1": -3.34, "Wolbachia per cell robust z, rep 2": 0.323, "Wolbachia per cell robust z, rep 3": -10.5, "Outcome": "inactive"}
{"predicted target": "CG11815", "dsRNA": "DRSC08209", "Wolbachia per cell robust z, rep 1": -0.271, "Wolbachia per cell robust z, rep 2": -0.983, "Wolbachia per cell robust z, rep 3": -0.717, "Outcome": "inactive"}
{"predicted target": "CG11815", "dsRNA": "DRSC27752", "Wolbachia per cell robust z, rep 1": 0.563, "Wolbachia per cell robust z, rep 2": 0.491, "Wolbachia per cell robust z, rep 3": -0.872, "Outcome": "inactive"}
{"predicted target": "CG6583", "dsRNA": "DRSC02972", "Wolbachia per cell robust z, rep 1": -0.322, "Wolbachia per cell robust z, rep 2": -2.05, "Wolbachia per cell robust z, rep 3": -0.78, "Outcome": "inactive"}
{"predicted target": "CG6583", "dsRNA": "DRSC27517", "Wolbachia per cell robust z, rep 1": 1.83, "Wolbachia per cell robust z, rep 2": 1.15, "Wolbachia per cell robust z, rep 3": 0.857, "Outcome": "inactive"}
{"predicted target": "CG32112", "dsRNA": "DRSC09815", "Wolbachia per cell robust z, rep 1": 0.317, "Wolbachia per cell robust z, rep 2": 0.798, "Wolbachia per cell robust z, rep 3": -0.0235, "Outcome": "inactive"}
{"predicted target": "TotZ", "dsRNA": "DRSC13450", "Wolbachia per cell robust z, rep 1": 0.855, "Wolbachia per cell robust z, rep 2": 0.526, "Wolbachia per cell robust z, rep 3": -1.19, "Outcome": "inactive"}
{"predicted target": "Ack", "dsRNA": "DRSC08135", "Wolbachia per cell robust z, rep 1": -2.75, "Wolbachia per cell robust z, rep 2": 0.0829, "Wolbachia per cell robust z, rep 3": -0.653, "Outcome": "inactive"}
{"predicted target": "Ack", "dsRNA": "DRSC28013", "Wolbachia per cell robust z, rep 1": 0.523, "Wolbachia per cell robust z, rep 2": 0.517, "Wolbachia per cell robust z, rep 3": 0.723, "Outcome": "inactive"}
{"predicted target": "CG15283", "dsRNA": "DRSC01980", "Wolbachia per cell robust z, rep 1": 0.455, "Wolbachia per cell robust z, rep 2": 0.0805, "Wolbachia per cell robust z, rep 3": -1.25, "Outcome": "inactive"}
{"predicted target": "CG15283", "dsRNA": "DRSC41535", "Wolbachia per cell robust z, rep 1": -0.458, "Wolbachia per cell robust z, rep 2": 0.193, "Wolbachia per cell robust z, rep 3": 1.6, "Outcome": "inactive"}
{"predicted target": "rod", "dsRNA": "DRSC17047", "Wolbachia per cell robust z, rep 1": 0.506, "Wolbachia per cell robust z, rep 2": -1.57, "Wolbachia per cell robust z, rep 3": 0.969, "Outcome": "inactive"}
{"predicted target": "Obp57c", "dsRNA": "DRSC06384", "Wolbachia per cell robust z, rep 1": -3.54, "Wolbachia per cell robust z, rep 2": -4.24, "Wolbachia per cell robust z, rep 3": -1.16, "Outcome": "inactive"}
{"predicted target": "Usf", "dsRNA": "DRSC18129", "Wolbachia per cell robust z, rep 1": -1.88, "Wolbachia per cell robust z, rep 2": -1.04, "Wolbachia per cell robust z, rep 3": -0.454, "Outcome": "inactive"}
{"predicted target": "Usf", "dsRNA": "DRSC23749", "Wolbachia per cell robust z, rep 1": -0.567, "Wolbachia per cell robust z, rep 2": -0.844, "Wolbachia per cell robust z, rep 3": -1.08, "Outcome": "inactive"}
{"predicted target": "CG18609", "dsRNA": "DRSC06775", "Wolbachia per cell robust z, rep 1": 0.605, "Wolbachia per cell robust z, rep 2": 0.724, "Wolbachia per cell robust z, rep 3": -0.308, "Outcome": "inactive"}
{"predicted target": "CG18609", "dsRNA": "DRSC27601", "Wolbachia per cell robust z, rep 1": -1.38, "Wolbachia per cell robust z, rep 2": 0.0971, "Wolbachia per cell robust z, rep 3": 0.506, "Outcome": "inactive"}

Entries listed above called active, once more:
{"predicted target": "cGlr2", "dsRNA": "DRSC04017", "Wolbachia per cell robust z, rep 1": -1.78, "Wolbachia per cell robust z, rep 2": -0.81, "Wolbachia per cell robust z, rep 3": -2.23, "Outcome": "active"}
